Experimental data: publication PMC10387993, “New pyrimidine-N-β-D-glucosides: synthesis, biological evaluation, and molecular docking investigations” (Turkish Journal of Chemistry, 2023)

Tested on: calf thymus DNA (CT-DNA)
Test: DNA binding study, UV-Visible absorption titration
Conditions: UV-Vis, 25 μM compound, CT-DNA 6.5–800 μM
Source text: The vast majority of anticancer agents used in pharmaceutical chemistry act on functional macromolecules such as DNA and proteins. Given this well-known fact, the relationship between newly developed anticancer drug candidates and macromolecules should be studied in detail. The interaction of molecules with DNA leads to significant changes in the helical structure of DNA, which can be observed by spectrophotometric techniques. […] Also, the red or blue shift in the absorption bands of the compounds can be an indication of the stability of the compound and the DNA structure. The DNA/BSA binding properties of the new chemicals synthesized by our group were determined using a UV-Vis spectrophotometer. The interactions of these compounds with DNA were as follows. In the spectra obtained by UV-Vis studies of the compounds, a single maximum absorption peak was observed and this peak had no clear bathochromic or hypsochromic effect. […]. […] The physical interactions of our newly synthesized compounds with BSA caused the formation of the spectral bands described below. […]. […]. Kb is the binding constant related to the complex to DNA and can be calculated algebraically from the slope of the line drawn between [DNA] / (ɛa-ɛf) and [DNA]. […].
To find the interaction of the compounds with calf thymus DNA and to calculate the binding constants (Kb) UV–Visible absorption spectroscopy technique was used. A 2.5-mg calf thymus DNA was dissolved in 10.0 mL Tris–HCl buffer (20 mM Tris–HCl, 20 mM NaCl, pH 7.0) and stabile during one week in the refrigerator. […]. After dissolving the calf thymus DNA fibers in Tris–HCl buffer, the purity of this solution was checked from the absorbance ratio A260/A280. […]. These compounds were diluted with Tris–HCl buffer to obtain 25 μM concentrations. Test compounds in the solutions were incubated at room temperature for nearly 30 min before the process. […] Absorption spectra were recorded by using 1-cm-path quartz cuvettes at room temperature. […]

SMILES | change of absorption intensity on adding increasing amounts of CT-DNA
Cc1ccc(-c2cc(-c3ccncc3)nc(N[C@@H]3O[C@H](CO)[C@@H](O)[C@H](O)[C@H]3O)n2)cc1 [Compound 9, N-[4-(4-methylphenyl)-6-pyridin-4-ylpyrimidin-2-yl]-β-D-glucopyranosylamine] | hyperchromic effect
CC(=O)OC[C@H]1O[C@@H](Nc2nc(-c3ccc(C)cc3)cc(-c3ccccn3)n2)[C@H](OC(C)=O)[C@@H](OC(C)=O)[C@@H]1OC(C)=O [Compound 16, 2,3,4,6-tetra-O-acetyl-N-[4-(4-methylphenyl)-6-pyridin-2-ylpyrimidin-2-yl]-β-D-glucopyranosylamine] | hypochromic effect
Cc1ccccc1-c1cc(-c2ccncc2)nc(N[C@@H]2O[C@H](CO)[C@@H](O)[C@H](O)[C@H]2O)n1 [Compound 3, N-[4-(2-methylphenyl)-6-pyridin-4-ylpyrimidin-2-yl]-β-D-glucopyranosylamine] | hyperchromic effect
